Values of other authors as cited in patent US20160367620A1, “GLUTATHIONE” (priority 2015, published 2016).

System: human immunodeficiency virus (HIV) expression
Details: U1 cells; cited from earlier work

glutathione ester [GSE]
cytotoxic or cytostatic effects: absence of cytotoxic or cytostatic effects
